Biological target: ACE-2-Fc fusion protein (human) (UniProt Q9BYF1)
Test: BLI
Conditions: domain or fragment

Sequences of proteins named here, by UniProt entry; tags and fusion partners are left off. Residues count along the entry.
UniProt Q9BYF1, 18-740: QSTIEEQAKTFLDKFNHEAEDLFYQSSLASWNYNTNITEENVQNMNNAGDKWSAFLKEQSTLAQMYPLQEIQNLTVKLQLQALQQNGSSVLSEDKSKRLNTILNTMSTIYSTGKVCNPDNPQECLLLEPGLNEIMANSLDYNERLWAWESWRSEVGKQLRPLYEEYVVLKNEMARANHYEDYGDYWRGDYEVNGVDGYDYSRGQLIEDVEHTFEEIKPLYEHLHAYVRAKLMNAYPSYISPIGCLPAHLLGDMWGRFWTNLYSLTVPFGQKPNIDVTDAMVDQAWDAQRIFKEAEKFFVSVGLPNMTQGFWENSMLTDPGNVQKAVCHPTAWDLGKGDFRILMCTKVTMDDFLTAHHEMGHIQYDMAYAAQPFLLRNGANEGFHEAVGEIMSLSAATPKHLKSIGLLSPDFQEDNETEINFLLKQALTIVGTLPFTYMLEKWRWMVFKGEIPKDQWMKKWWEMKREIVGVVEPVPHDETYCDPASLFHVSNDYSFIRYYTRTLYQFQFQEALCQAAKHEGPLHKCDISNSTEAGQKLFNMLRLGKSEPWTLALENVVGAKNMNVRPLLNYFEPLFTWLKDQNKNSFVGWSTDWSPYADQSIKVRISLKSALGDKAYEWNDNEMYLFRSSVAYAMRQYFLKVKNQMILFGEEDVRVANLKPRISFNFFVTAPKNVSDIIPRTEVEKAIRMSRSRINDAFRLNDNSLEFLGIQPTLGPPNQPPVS

SARS-CoV-2 RBD wt gave a koff of 0.00566 s⁻¹.

— PMC11666439
